Compound potency records, mixed from different reports. Data source: NIAID ChemDB in PubChem.

Shared fields: tests in culture; species: Coxsackie virus; endpoint: EC50

Rows are shuffled and stem from different studies. Blank or dashed fields: not listed here. ECn: concentration that inhibits the pathogen or its effect by n%.

structure | cells | method | strain | result
COc1ccc(/C=N/N=C(\N)NO)cc1.Cc1ccc(S(=O)(=O)O)cc1 | VERO | plaque count | ATCC VR28 (TYPE B1) | >50 µM
NC1=CC(N)=NS(=O)(=O)N1COCCO | VERO |  | TYPE B4 | >400 µg/mL
CC1(C)[C@@H](CO)CC[C@@]1(C)Cn1nnc2c(=O)[nH]cnc21 | HeLa | cytopathic effect | TYPE B4 | >400 µg/mL
COC(=O)[C@]1(C)CCC[C@]2(C)c3ccc4[nH]c(C(F)(F)F)nc4c3CCC12 | HeLa | plaque count | TYPE B4 | >4 µg/mL
CC1(C)[C@@H](CO)CC[C@@]1(C)Cn1nnc2c(N)ncnc21 | VERO | cytopathic effect | TYPE B4 | >400 µg/mL
CC(=O)OCCOCN1C(=O)C=CN(COCCO)S1(=O)=O | HeLa |  | TYPE B4 | >400 µg/mL
COC(=O)[C@]1(C)CCC[C@]2(C)c3ccc4nc(-c5ccccc5)c(-c5ccccc5)nc4c3CCC12 | HeLa | plaque count | TYPE B4 | >4 µg/mL
COc1cc(OC)c(OC)cc1/C=N/N=C(/N)NO.Cc1ccc(S(=O)(=O)O)cc1 | VERO | plaque count | ATCC VR28 (TYPE B1) | >50 µM
CC1(C)[C@@H](CO)CC[C@@]1(C)Cn1cnc2c(Cl)ncnc21 | VERO | cytopathic effect | TYPE B4 | >400 µg/mL
CC=NC(=N)c1nc(-c2ccccc2)n(C/C=C/c2ccccc2)n1 | HeLa | cytopathic effect | TYPE B4 | >10 µg/mL
O=c1[nH]n2c(-c3cn(-c4ccccc4)nc3-c3ccccc3)nnc2sc1=O | HeLa | cytopathic effect | TYPE B4 | 48 µg/mL
N#CC1=CN(COCCO)S(=O)(=O)N=C1N | HeLa |  | TYPE B4 | >400 µg/mL
Cc1ccc(C(=O)CCCCCCOc2ccc(C3=NC(C)(C)CO3)cc2)s1 | VERO | cytopathic effect | TYPE B2 | >26.95 µM
Cc1ccc(S(=O)(=O)O)cc1.N/C(=N/N=C/c1ccc2c(c1)OCO2)NO | VERO | plaque count | ATCC VR28 (TYPE B1) | >50 µM
Nn1c(SCC(=O)O)nnc1-c1cn(-c2ccccc2)nc1-c1ccccc1 | HeLa | cytopathic effect | TYPE B4 | >80 µg/mL
Cc1cc(CCCCCCCOc2ccc(C3=NCCO3)cc2)on1 | VERO | cytopathic effect | TYPE B5 | 12.08 µM
CC1(C)[C@@H](CO)CC[C@@]1(C)Cn1nnc2c(Cl)ncnc21 | HeLa | cytopathic effect | TYPE B4 | >400 µg/mL
COC(=O)[C@]1(C)CCC[C@]2(C)c3cc(Br)c4nc[nH]c4c3CCC12 | HeLa | plaque count | TYPE B4 | >4 µg/mL
Cc1ccc(C(=O)CCCCOc2ccc(C3=NC(C)(C)CO3)cc2)s1 | VERO | cytopathic effect | TYPE B5 | >26.95 µM
N#Cc1cncc([C@@H]2O[C@H](CO)[C@H](O)[C@@H]2O)c1 | HeLa | cytopathic effect | TYPE B4 | ≥100 µg/mL
CC=NC(=N)c1nc(-c2cccc(C)c2)n(Cc2ccccc2)n1 | HeLa | cytopathic effect | TYPE B4 | >10 µg/mL
N#Cc1cncc([C@@H]2O[C@H](CO)[C@@H](O)[C@@H]2O)c1 | VERO | cytopathic effect | TYPE B4 | ≥100 µg/mL
CCC1COC(c2ccc(OCCCCCCC(=O)c3ccc(C)s3)cc2)=N1 | VERO | cytopathic effect | TYPE B5 | >25.06 µM
NC1=Nn2c(nnc2-c2cn(-c3ccccc3)nc2-c2ccccc2)SC1 | VERO | cytopathic effect | TYPE B4 | >16 µg/mL
CCS(=O)(=O)c1cccnc1Oc1ccc(C(=O)c2ccccc2)cc1 | HeLa | cytopathic effect | TYPE A21 | >10 µg/mL
c1ccc(C2=Nn3c(nnc3-c3cn(-c4ccccc4)nc3-c3ccccc3)SC2)cc1 | VERO | cytopathic effect | TYPE B4 | >16 µg/mL
CCN(CC)c1noc(-c2ccc(O)cc2O)c1Cc1c(N(CC)CC)noc1-c1ccc(OC)cc1O | VERO | cytopathic effect | ATCC VR28 (TYPE B1) | >3.5 µM
C=C(N=CC)c1nc(-c2ccccc2)n([C@@H]2O[C@H](CO)[C@@H](O)[C@H]2O)n1 | HeLa | cytopathic effect | TYPE B4 | >200 µg/mL
COC(=O)[C@]1(C)CCC[C@]2(C)c3ccc4[nH]cnc4c3CCC12 | HeLa | plaque count | TYPE B4 | >4 µg/mL
NC(=S)c1cncc([C@@H]2O[C@H](CO)[C@@H](O)[C@@H]2O)c1 | HeLa | cytopathic effect | TYPE B4 | ≥100 µg/mL
C/C(O)=C1\C(=N)N(COCCO)S(=O)(=O)N=C1N | VERO |  | TYPE B4 | >400 µg/mL
COc1ccc(-c2cc(N(C)C)no2)c(O)c1 | VERO | cytopathic effect | ATCC VR28 (TYPE B1) | >427 µM
O=C1CSc2nnc(-c3cn(-c4ccccc4)nc3-c3ccccc3)n2N1 | VERO | cytopathic effect | TYPE B4 | >16 µg/mL
CC(=O)OCCOCN1C=CC(=O)N(COCCO)S1(=O)=O | HeLa |  | TYPE B4 | >400 µg/mL
COc1ccc(-c2cc(N3CCCC3)no2)c(O)c1 | VERO | cytopathic effect | ATCC VR28 (TYPE B1) | >384 µM
CS(=O)(=O)c1ccc(Oc2ccc(C(=O)c3ccccc3)cc2)nc1 | HeLa | cytopathic effect | B3 | <0.6 µg/mL
O=c1[nH]n2c(-c3cn(-c4ccccc4)nc3-c3ccccc3)nnc2s1 | HeLa | cytopathic effect | TYPE B4 | 48 µg/mL
N#Cc1cncc([C@H]2O[C@H](CO)[C@@H](O)[C@@H]2O)c1 | VERO | cytopathic effect | TYPE B4 | ≥100 µg/mL
CC=NC(=N)c1nc(-c2ccccc2)n(Cc2ccccc2)n1 | VERO | cytopathic effect | TYPE B4 | >4 µg/mL
Cc1ccc(C(=O)CCCCCCOc2ccc(C3=N[C@@H](C)CO3)cc2)s1 | VERO | cytopathic effect | TYPE B2 | >25.97 µM
Cc1cc(CCCCCOc2c(Cl)cc(C3=NCCO3)cc2Cl)on1 | RD-2 | plaque count | A-9 | 0.004 µg/mL
Nn1c(-c2cn(-c3ccccc3)nc2-c2ccccc2)n[nH]c1=S | VERO | cytopathic effect | TYPE B4 | >16 µg/mL
CCOC(=O)c1ccc(OCCCCC(=O)c2ccc(C)s2)cc1 | VERO | cytopathic effect | TYPE B5 | >26.72 µM
S=c1[nH]nc(-c2cn(-c3ccccc3)nc2-c2ccccc2)o1 | HeLa | cytopathic effect | TYPE B4 | 48 µg/mL
CCN(CC)c1cc(-c2ccc(OC)cc2OC)on1 | VERO | cytopathic effect | ATCC VR28 (TYPE B1) | 20 µM
O=C1C=CN(COCCO)S(=O)(=O)N1COCCO | HeLa |  | TYPE B4 | >400 µg/mL
NC(=O)c1cncc([C@@H]2O[C@H](CO)[C@H](O)[C@@H]2O)c1 | VERO | cytopathic effect | TYPE B4 | ≥100 µg/mL

6 of the rows above, restated:

structure	cells	method	strain	result
O=c1[nH]n2c(-c3cn(-c4ccccc4)nc3-c3ccccc3)nnc2sc1=O	HeLa	cytopathic effect	TYPE B4	48 µg/mL
NC(=O)c1cncc([C@@H]2O[C@H](CO)[C@H](O)[C@@H]2O)c1	VERO	cytopathic effect	TYPE B4	≥100 µg/mL
COc1ccc(-c2cc(N3CCCC3)no2)c(O)c1	VERO	cytopathic effect	ATCC VR28 (TYPE B1)	>384 µM
Nn1c(-c2cn(-c3ccccc3)nc2-c2ccccc2)n[nH]c1=S	VERO	cytopathic effect	TYPE B4	>16 µg/mL
O=C1CSc2nnc(-c3cn(-c4ccccc4)nc3-c3ccccc3)n2N1	VERO	cytopathic effect	TYPE B4	>16 µg/mL
NC(=S)c1cncc([C@@H]2O[C@H](CO)[C@@H](O)[C@@H]2O)c1	HeLa	cytopathic effect	TYPE B4	≥100 µg/mL